Reference: PubChem BioAssay AID1918969 (ICCB-Longwood Screening Facility, Harvard Medical School, 2023)
Values joined by “and” are separate entries in the source; they are usually repeats but may differ in a detail not shown here. Equal entries are not always repeated. Only a part is listed here, and it is no random draw. Active and inactive are the calls of the source. Rule as the data show it: active = inhibition above about 27% (passing the limit was not always enough); inactive = the rest.

The compounds below were run on HCMV UL50-UL53 nuclear egress complex (human cytomegalovirus) (assay: inhibitors of HCMV UL50-UL53 interaction, biochemical, HTRF (AID 1918969)). Conditions: normalized percent inhibition, stronger effect = higher value, concentration not given here.
In the case of `COc1cc(-n2cnnn2)ccc1-n1cnnn1`, the inhibition is reported as inactive: 5%.
With `CN(C(=O)Cc1ccc(Cl)c(Cl)c1)[C@@H]1CC[C@]2(CCCO2)C[C@H]1N1CCCC1` the inhibition was inactive: -22.3%.
`O=C(OC1CN2CCC1CC2)c1ccc(Cl)cc1` (stereo unspecified) was tested, and the inhibition was inactive: -21.6%.
For `CN(C(=O)Cc1ccccc1)[C@@H]1CC[C@]2(CCCO2)C[C@H]1N1CCCC1`, the inhibition was inactive: -10.4%.
In the case of `CCOP1(=S)c2c(C)nn(CCC#N)c2N=C(c2ccc(F)cc2)N1C` (stereo unspecified), the inhibition is reported as inactive: 0.4%.
With `CC1(C)Nc2ccccc2OP1(=O)c1ccccc1` (stereo unspecified) the inhibition was inactive: -12.5%.
`O=P1(Nc2nc3ccc(Cl)cc3s2)COc2ccccc2OC1` was tested, and the inhibition was inactive: -37.1%.
`NC(=O)Nc1ccc([As](=O)(O)O)cc1` was tested, and the inhibition was inactive: -7.7%.
For `NC(=O)COC(=O)C1(O)c2ccccc2-c2ccccc21`, the inhibition was inactive: -29.8%.
`CC1(C)COP(=S)(N(C2=NCCC2)c2ccccc2)OC1` was tested, and the inhibition was inactive: 12.1%.
For `CCSP(=O)(c1ccccc1)c1ccccc1`, the inhibition was inactive: 2.5%.
With `Cc1nn(CCC#N)c2c1P(=O)(Nc1ccccc1Cl)N(C)C(c1ccc(F)cc1)=N2` (stereo unspecified) the inhibition was inactive: -9.3%.
For `CP(=O)(N1CCOCC1)N1CCOCC1`, the inhibition was inactive: 5.1%.
`Cc1ccc(C(=O)OC2CN3CCC2CC3)cc1` (stereo unspecified) was tested, and the inhibition was inactive: -27%.
For `Cc1nn(-c2ccccc2)c2c1P(=O)(N1CCOCC1)N(C)C(c1ccccc1)=N2` (stereo unspecified), the inhibition was inactive: -34.1%.
In the case of `CN(C(=O)Cc1ccc(Cl)c(Cl)c1)[C@@H]1CCCC[C@H]1N1CCCC1`, the inhibition is reported as inactive: 15.7%.
In the case of `Nc1nonc1-c1no[n+]([O-])c1-c1nonc1N`, the inhibition is reported as inactive: 15.1%.
In the case of `CCn1cccc/c1=N\P1(=S)OCCO1`, the inhibition is reported as inactive: 3.1%.
With `CN(C)CCS` the inhibition was inactive: -55.3%.
`CCOC(=O)c1ccc(NP(C)(=O)Oc2ccc(OC)cc2)cc1` (stereo unspecified) was tested, and the inhibition was inactive: -5%.
With `Cc1cccc(NP(C)(=O)Oc2ccccc2)c1` (stereo unspecified) the inhibition was inactive: -13.7%.
`CP(=O)(NC(=O)Nc1ccccc1)Oc1ccccc1` (stereo unspecified) was tested, and the inhibition was inactive: -4.9%.
`COP1(=S)c2c(C)nn(-c3ccccc3)c2N=C(c2ccccc2)N1C1CC1` (stereo unspecified) was tested, and the inhibition was inactive: -33.3%.
With `COc1ccccc1OP(C)(=O)Nc1ccccc1` (stereo unspecified) the inhibition was inactive: 2.1%.
For `CCN1C(=O)N(c2ccccc2)P(=S)(OC)c2cc3c(cc21)OCCO3` (stereo unspecified), the inhibition was inactive: -9%.
With `CP(=O)(Nc1ccc(Cl)cc1)Oc1ccccc1` (stereo unspecified) the inhibition was inactive: -2.8%.
For `O=C(O)CCC(=O)N=S(c1ccccc1)c1ccccc1.O=[N+]([O-])c1cc([N+](=O)[O-])c(O)c([N+](=O)[O-])c1`, the inhibition was inactive: -87.3%.
With `COP1(=S)N=C2c3ccccc3CN2c2cc(N(C)C)ccc21` (stereo unspecified) the inhibition was inactive: -23.9%.
`Cc1cc(C)cc(OP(C)(=O)NCc2ccccc2)c1` (stereo unspecified) was tested, and the inhibition was inactive: -0.2%.
With `Nc1nonc1OCCOc1nonc1N` the inhibition was inactive: -10%.
`O=C(O)C1(O)c2ccccc2-c2ccccc21` was tested, and the inhibition was inactive: -24.1%.
For `CN(C)P1(=O)Nc2ccccc2S1` (stereo unspecified), the inhibition was inactive: -0.8%.
For `O=P1(Nc2nccs2)CC=CC1`, the inhibition was inactive: 4.9%.
With `O=P(O)(O)F` the inhibition was inactive: -46%.
With `CC1=C2[N-][C@@H](C(CC(N)=O)[C@@]2(C)CCC(=O)NCC(C)OP(=O)([O-])OC2C(CO)OC(n3cnc4cc(C)c(C)cc43)C2O)[C@]2(C)N=C(C(C)=C3N=C(C=C4N=C1C(CCC(N)=O)C4(C)C)C(CCC(N)=O)[C@]3(C)CC(N)=O)C(CCC(N)=O)[C@]2(C)CC(N)=O.[C-]#N.[Co+3]` (stereo partly specified) the inhibition was active: 68.7%.
`CCOP(OCC)N1CCOCC1` was tested, and the inhibition was inactive: 8.8%.
`O=C(O[C@H]1CN2CCC1CC2)C1NCc2ccccc2[C@@H]1c1ccccc1` (stereo partly specified) was tested, and the inhibition was inactive: -25.4%.
With `O=C(COC(=O)C(O)(c1ccccc1)c1ccccc1)N1CCCCC1` the inhibition was inactive: -13.8%.
With `CCc1nc2c(n1)c1c(non1O)c1c2no[n+]1[O-]` the inhibition was inactive: -69.4%.
In the case of `CCc1ccc(OP(C)(=O)Nc2cccnc2)cc1` (stereo unspecified), the inhibition is reported as inactive: -26.8%.
`Cc1ccccc1NP(C)(=O)Nc1ccccc1C` was tested, and the inhibition was inactive: -29.4%.
`CC(=O)OC1CN2CCC1C(c1ccccc1)C2` (stereo unspecified) was tested, and the inhibition was inactive: 5.1%.
In the case of `O=P(Nc1nccs1)(c1ccccc1)c1ccccc1`, the inhibition is reported as inactive: -26.6%.
For `C/C1=C2N=C(/C=C3N=C(/C(C)=C4\[N-][C@@](C)([C@@H]5N=C1[C@](C)(CCC(=O)NC[C@@H](C)OP(=O)([O-])O[C@H]1[C@@H](O)[C@@H](n6cnc7cc(C)c(C)cc76)O[C@@H]1CO)[C@H]5CC(N)=O)[C@@](C)(CC(N)=O)[C@@H]4CCC(N)=O)[C@@](C)(CC(N)=O)[C@@H]\3CCC(N)=O)C(C)(C)[C@@H]/2CCC(N)=O.[C-]#N.[Co+3]`, the inhibition was inactive: 12.8%.
For `CC(=O)OC1(C#N)CN2CCC1CC2` (stereo unspecified), the inhibition was inactive: -3.1%.
With `Nc1nonc1OCc1nonc1COc1nonc1N` the inhibition was inactive: -29%.
In the case of `C=CCN1CCN(CCOC(=O)C(O)(c2ccccc2)c2ccccc2)CC1`, the inhibition is reported as inactive: -10.1%.
For `O=C(OC1/C(=C/c2ccccc2F)N2CCC1CC2)c1ccccc1` (stereo unspecified), the inhibition was inactive: 2.8%.
For `CC1CCC(C(C)C)C(OP(=O)(Nc2nccs2)c2ccccc2)C1` (stereo unspecified), the inhibition was inactive: -8%.
For `O=C(OC1CN2CCC1CC2)c1ccccc1` (stereo unspecified), the inhibition was inactive: -27.1% and inactive: -17.9%.
`CN(C(=O)Cc1ccc(Cl)c(Cl)c1)[C@@H]1CCCC[C@@H]1N1CCCC1` was tested, and the inhibition was inactive: -3.2%.
For `COC(=O)c1cc2c(s1)N=C(c1ccccc1)N(C)P2(=O)N1CCOCC1` (stereo unspecified), the inhibition was inactive: 0.8%.
With `O=C(OCC1CN(Cc2ccccc2)CCO1)C(O)(c1ccccc1)c1ccccc1` (stereo unspecified) the inhibition was inactive: -6.9%.
In the case of `O=C(OCCN1CCN(CCOCc2ccccc2)CC1)C(O)(c1ccccc1)c1ccccc1`, the inhibition is reported as inactive: -0.7%.
With `Cc1cc(NC2=NC3C(C(=O)N(C)C(=O)N3C)N2C)n(-c2ccccc2)n1` (stereo unspecified) the inhibition was inactive: -6.8%.
`O=P1(Nc2nncs2)C=C(c2ccccc2)SC(c2ccccc2)=C1` was tested, and the inhibition was inactive: -23.6%.
